A mixed list of measured activities; the numbers were collected in NIAID ChemDB.

All rows: tests in culture; agent: Mycobacterium tuberculosis

MIC bound: limit read from a one-dose screen. ECn: concentration that inhibits the pathogen or its effect by n%. MIC50, MIC90 and the like: level of inhibition, or share of isolates inhibited. An empty or dashed field is not shown. Inhibition is in % at the dose shown (toxicity tests: loss of growth or viability). Conditions beyond the fields shown may differ between rows.

compound | read by | strain | changes | endpoint | tested at | cells | value
Cc1nc(Cc2ccc(O)c(O)c2)c(C)o1 | BACTEC | H37Rv | - | inhibition | 12.5 µg/mL | - | -3%
NC(=O)c1ncc(C(N)=S)nc1NC1CCCCCC1 | - | H37Rv | - | MIC | - | - | >100 µg/mL
Oc1ccc(Cl)cc1C(=S)Nc1ccccc1 | - | My 331/88 | - | MIC | - | - | 1 µM
COc1ccc(CC(=O)c2c(O)c3c(c(CC=C(C)C)c2OC)OC(C)(C)C=C3)cc1 | BACTEC | H37Rv | - | MIC | - | - | ≥128 µg/mL
O=C1Nc2ccccc2/C1=N/N=C/c1ccccc1[N+](=O)[O-] | resazurin | H37Rv | - | MIC50 | - | - | >50 µg/mL
O=C(O)c1ccccc1-c1c2ccc(=O)c(Br)c-2oc2c(Br)c(O)ccc12 | BACTEC | H37Rv | - | MIC bound | - | - | >12.5 µg/mL
CC[C@H](C)N1CCN(c2cc(=O)c3nc4c(oc3c2)c2c(=O)c3c(O)c(C)c5c(c34)=C(O)[C@@](C)(O/C=C/[C@H](OC)[C@@H](C)[C@@H](OC(C)=O)[C@H](C)[C@H](O)[C@H](C)[C@@H](O)[C@@H](C)/C=C/C=C(/C)C(=O)N2)O5)CC1 | - | 16 strains (rifampicin-susceptible) | - | MIC50 | - | - | 0.025 µg/mL
CCCCCCCCC[C@@H]1CC=CC(=O)O1 | fluorescence | H37Rv | - | inhibition | 128 µg/mL | - | 76.8%
Clc1ccc(Cl)c(N/N=C/c2c[nH]c3ccccc23)c1 | resazurin | H37Rv (ATCC 27294) | - | inhibition | 6.25 µg/mL | VERO | 97%
Nc1ncnc2c1ncn2[C@H]1O[C@@H](CO)[C@H](O)[C@@H]1N | BACTEC | H37Rv | - | inhibition | 12.5 µg/mL | - | 0%
C[C@@H]1CN(c2c(F)c(N)c3c(=O)c(C(=O)O)cn(C4CC4)c3c2F)C[C@H](C)N1 | - | INH PAS SM resistant | - | MIC | - | - | 0.1 µg/mL
O=C(Oc1c(O)c2ccccc2c2ccccc12)c1ccccc1 | resazurin | H37Rv | - | MIC bound | - | - | <6.25 µg/mL
CCCCCCCCCCCCCCC[C@H](O)CC[C@@H](O)CCC[C@H]1CC=CC(=O)O1 | - | H37Rv | - | MIC | - | - | 61.47 µg/mL
NC(=O)c1cnccn1 | resazurin | H37Rv | - | MIC | - | - | 100 µg/mL
O=C1c2ccccc2C(=O)N1N=Cc1ccc(O)c(O)c1 | resazurin | H37Ra | - | MIC50 | - | - | >50 µg/mL
CO[C@H]1/C=C/O[C@@]2(C)Oc3c(C)c(O)c4c(O)c(c(/C=N/N5CCN(C)CC5)c(O)c4c3C2=O)NC(=O)/C(C)=C\C=C\[C@H](C)[C@H](O)[C@@H](C)[C@@H](O)[C@@H](C)[C@H](OC(C)=O)[C@@H]1C | visual reading | - | - | MIC | - | - | 0.1 µg/mL
CC(C)COc1ccc(NC(=S)Nc2ccc(-c3ccccn3)cc2)cc1 | - | H37RV (INH-R) | - | MIC | - | - | >50 µg/mL
N#C/C(=C\c1ccc(N)cc1)n1nnc2ccccc21 | - | - | - | EC50 | - | - | >12.5 µg/mL
O=C(/C=C/c1cc2cc(F)ccc2nc1Cl)c1ccc(Br)cc1 | broth dilution | H37Rv | - | inhibition | 5 µg/mL | - | 98%
CCCCCCCCCCCCCCC[C@H]1CCCC(=O)O1 | - | H37Rv | - | MIC | - | - | >128 µg/mL
COc1nc2ccc(Br)cc2cc1C1C(Cl)C(=O)N1NC(=O)c1ccc(-n2cccc2)cc1 | resazurin | H37Rv | - | MIC | - | - | 6.25 µg/mL
NC(=O)c1ncc(C(N)=S)nc1N1CCCCC1 | - | H37Rv | - | MIC | - | - | 100 µg/mL
O=C(N=Nc1c(O)[nH]c2ccccc12)c1cncc(Br)c1 | resazurin | H37Rv | - | MIC50 | - | - | >50 µg/mL
CCCCCCCCCCCCCCC[C@H](O)CCC[C@H](O)C[C@H]1CC=CC(=O)O1 | fluorescence | H37Rv | - | inhibition | 128 µg/mL | VERO | 97.3%
O=[N+]([O-])c1cccc2c1ccc1nonc12 | resazurin | H37Rv | - | MIC bound | - | - | >6.25 µg/mL
N#C/C(=C\c1ccc(Br)cc1)n1nc2ccccc2n1 | - | - | - | EC50 | - | - | >12.5 µg/mL
CC(C)c1ccc(NC(=S)c2cc(Cl)ccc2O)cc1 | - | My 331/88 | - | MIC | - | - | 1 µM
NC(=O)N/N=C(\C(=O)C(=O)Nc1ccc(Cl)c(C(F)(F)F)c1)c1nc2ccc(C(=O)c3ccccc3)cc2[nH]c1=O | BACTEC | H37Rv | - | MIC bound | - | - | >12.5 µg/mL
Cc1ccc(/C=C(\C#N)n2nc3ccccc3n2)cc1 | - | - | - | inhibition | 12.5 µg/mL | - | 31%
CC(C(N)=S)c1nc2ncccc2[nH]1 | - | 193 | - | MIC | - | - | 125 µg/mL
Oc1ccc(Cl)cc1C(=S)Nc1ccc(F)cc1 | - | My 331/88 | - | MIC | - | - | 2 µM
Cc1ccc(-n2cc(-c3ccc(Cl)cc3)c3c2N=CN2NC(c4cccs4)=NC32)cc1 | BACTEC | H37Rv | - | MIC bound | - | - | >12.5 µg/mL
CO[C@H]1/C=C/O[C@@]2(C)Oc3c(C)c(O)c4c(O)c(c(/C=N/N5CCN(C)CC5)c(O)c4c3C2=O)NC(=O)/C(C)=C\C=C\[C@H](C)[C@H](O)[C@@H](C)[C@@H](O)[C@@H](C)[C@H](OC(C)=O)[C@@H]1C | agar | H37Rv | - | MIC | - | - | 1.56 µg/mL
Cc1ccc(C)n1-c1ccsc1C(=O)NNC(=O)CCl | BACTEC | H37Rv | - | MIC bound | - | - | >12.5 µg/mL
C[C@H]1CCC2=C(CCCC2(C)C)[C@]1(C)CCC1=CC(=O)OC1O | - | H37Rv | - | inhibition | 12.5 µg/mL | - | 0%
COc1nc2ccc(Br)cc2cc1/C=N/NC(=O)c1ccc(-n2cccc2)cc1 | resazurin | H37Rv | - | MIC | - | - | 1.6 µg/mL
O=[N+]([O-])/C=C/c1cn(Cc2ccccc2)c2ccccc12 | resazurin | H37Rv (ATCC 27294) | - | inhibition | 6.25 µg/mL | - | 46%
CCCNc1nc(C(N)=S)cnc1C(N)=O | - | H37Rv | - | MIC | - | - | 100 µg/mL
Cn1c(=O)c(N=Nc2ccccc2[N+](=O)[O-])c(O)c2ccccc21 | resazurin | H37Rv | - | inhibition | 6.25 µg/mL | - | 94%
COc1nc2ccccc2cc1/C=N/NC(=O)c1ccc(-n2cccc2)cc1 | resazurin | H37Rv | - | MIC | - | - | 6.25 µg/mL
COc1c(N2CCNC(C)C2)c(F)cc2c(=O)c(C(=O)O)cn(C3CC3)c12 | - | 158 strains | - | MIC | - | - | >16 µg/mL
CO[C@H]1/C=C/O[C@@]2(C)Oc3c(C)c(O)c4c(O)c(cc(OCC(=O)O)c4c3C2=O)NC(=O)/C(C)=C\C=C\[C@H](C)[C@H](O)[C@@H](C)[C@@H](O)[C@@H](C)[C@H](OC(C)=O)[C@@H]1C | - | H37Rv | - | MIC | - | - | 0.05 µg/mL
Nc1nc2c(c(-c3cc4cc(Br)ccc4nc3Cl)n1)-c1ccccc1C2 | broth dilution | H37Rv | - | inhibition | 6.25 µg/mL | - | 14%
C=CCn1c2ccccc2c2c(C)c3cnccc3c(C)c21 | - | H37Rv | - | MIC | - | VERO | 3.13 µg/mL
Cc1cc(C)cc(N=Nc2c(O)c3c(ccc4ccccc43)oc2=O)c1 | resazurin | H37Rv | - | MIC | - | - | <6.25 µg/mL
CO[C@H]1/C=C/O[C@@]2(C)Oc3c(C)c(O)c4c(=O)c(c5oc6cc(N7CCN(CC(C)C)CC7)cc(=O)c6nc5c4c3=C2O)NC(=O)/C(C)=C\C=C\[C@H](C)[C@H](O)[C@@H](C)[C@@H](O)[C@@H](C)[C@H](OC(C)=O)[C@@H]1C | - | 6 strains (rifampicin-resistant) | - | MIC50 | - | - | ≤0.0125 µg/mL
COc1ccc(-c2csc(Nc3cc(Cl)cc(Cl)c3)n2)cc1 | resazurin | - | - | MIC | - | - | 15.6 µM
CC(=O)Nc1ccc(/C=N/NC(N)=S)cc1F | resazurin | H37Rv | Ethambutol-resistant | MIC90 | - | - | <0.2 µg/mL
N#Cc1c(-c2cccc([N+](=O)[O-])c2)cc(-c2cc3cc(Br)ccc3nc2Cl)nc1N | broth dilution | H37Rv | - | inhibition | 6.25 µg/mL | - | 6%
C/C=C/Nc1nc(C(N)=S)cnc1C(N)=O | - | H37Rv | - | MIC | - | - | 25 µg/mL
C=COC=C.O=C1C=CC(=O)O1 | resazurin | H37Rv | - | inhibition | 6.25 µg/mL | - | -19%
Oc1ccc(Cl)cc1C(=S)Nc1cccc(F)c1 | - | My 331/88 | - | MIC | - | - | 2 µM
N#C/C(=C/c1ccc(Cl)cc1)n1nc2ccccc2n1 | - | - | - | inhibition | 12.5 µg/mL | - | 12%
NNC(=O)c1ccncc1 | visual reading | - | - | MIC | - | - | 0.05 µg/mL
COc1cccc(C=NN2C(=O)c3ccccc3C2=O)c1O | resazurin | H37Rv | - | MIC50 | - | - | >50 µg/mL
O=C(NCCS(=O)(=O)N1C(=O)C2CCCN2C(=O)[C@@H]1Cc1ccccc1)OCc1ccccc1 | resazurin | H37Rv | - | MIC bound | - | - | >6.25 µg/mL
Cn1cccc2nc(CC(=O)NN)nc1-2 | - | H37Rv | - | MIC | - | - | 250 µg/mL
COc1nc2ccc(C)cc2cc1/C=N/NC(=O)c1ccc(-n2cccc2)cc1 | resazurin | H37Rv | - | MIC | - | - | 1.6 µg/mL
N=C1N(c2ccccc2)C(=S)C(=Nc2ccccc2)N1c1ccccc1 | BACTEC | H37Rv | - | inhibition | 12.5 µg/mL | - | 52%
Cc1ccc(/C=C(\C(N)=S)c2nc3ncccc3n2C)c(C)c1 | - | H37Rv | - | MIC | - | - | 62.5 µg/mL
Cc1ccc2nc(/C=C/c3ccccc3Cl)c(=O)[nH]c2c1 | BACTEC | H37Rv | - | MIC bound | - | - | >12.5 µg/mL
N#C/C(=C\c1ccc(Cl)cc1)n1nnc2ccccc21 | - | - | - | EC50 | - | - | <12.5 µg/mL
CCCCCCCCCCCCCCC[C@H](O)CCCCCC[C@H]1CC=CC(=O)O1 | fluorescence | H37Rv | - | inhibition | 128 µg/mL | - | 48.1%
COC(=O)c1ccc(N2C(=O)c3cccc([N+](=O)[O-])c3C2=O)cc1O | resazurin | H37Ra | - | MIC50 | - | - | >50 µg/mL
CCCCCCCCCCCCCCC[C@H](O)CCC[C@H]1CC=CC(=O)O1 | - | H37Rv | - | MIC | - | - | 31.95 µg/mL
NC(=O)c1ncc(C(N)=S)nc1N1CCCC1 | - | H37Rv | - | MIC | - | - | >100 µg/mL
Cc1[nH]c2ccccc2c1/C=N/N(C)C | resazurin | H37Rv (ATCC 27294) | - | inhibition | 6.25 µg/mL | - | 0%
Cc1ccc(NC(=O)c2cc([N+](=O)[O-])cc([N+](=O)[O-])c2)cc1Cl | BACTEC | H37Rv | - | MIC bound | - | - | ≤12.5 µg/mL
CC[C@@H](CO)NCCN[C@@H](CC)CO | broth dilution | MTCC 200 | - | MIC | - | - | 40 µg/mL
Cc1ccc(/C=C(\C#N)n2nnc3ccccc32)cc1 | - | - | - | inhibition | 12.5 µg/mL | - | 55%
Cn1cc(C(=O)N=Nc2c(O)n(C)c3ccccc23)c2ccccc21 | resazurin | H37Ra | - | MIC50 | - | - | 25 µg/mL
N#C/C(=C\c1ccc(N)cc1)n1nc2ccccc2n1 | - | - | - | inhibition | 12.5 µg/mL | - | 28%
Cl.O=C1C2CSCN2C(=O)CN1CCN1CCOCC1 | BACTEC | H37Rv | - | inhibition | 12.5 µg/mL | - | 15%
C/C(=C\c1c(-c2ccccc2)[nH]c2ccccc12)[N+](=O)[O-] | resazurin | H37Rv (ATCC 27294) | - | inhibition | 6.25 µg/mL | - | 39%
Cn1cccc2nc(C/C(N)=N/O)nc1-2 | - | H37Rv | - | MIC | - | - | 500 µg/mL
O=c1ccc2nc3ccccc3ccc-2c1 | BACTEC | H37Rv | - | MIC bound | - | - | ≤12.5 µg/mL
CO[C@H]1/C=C/O[C@@]2(C)Oc3c(C)c(O)c4c(=O)c(c5oc6cc(N7CCN(CC(C)C)CC7)cc(=O)c6nc5c4c3=C2O)NC(=O)/C(C)=C\C=C\[C@H](C)[C@H](O)[C@@H](C)[C@@H](O)[C@@H](C)[C@H](OC(C)=O)[C@@H]1C | - | 3147 (rifampin-sensitive) | - | MBC | - | - | 0.003 µg/mL
COc1ccc(CCN2C(=O)C(=O)N(c3cccc(Cl)c3)C2=O)cc1OC | BACTEC | H37Rv | - | inhibition | 12.5 µg/mL | - | 79%
O=C(/C=C/c1cc2cc(Br)ccc2nc1Cl)c1ccc(Cl)c(Cl)c1 | broth dilution | H37Rv | - | inhibition | 6.25 µg/mL | - | 5%
Cc1[nH]c2ccccc2c1/C=N/Nc1ccccc1 | resazurin | H37Rv (ATCC 27294) | - | inhibition | 6.25 µg/mL | VERO | 91%
Cc1cccc(N=Nc2c(O)c3cccc([N+](=O)[O-])c3[nH]c2=O)c1 | resazurin | H37Rv | - | inhibition | 6.25 µg/mL | - | 95%
NC(=O)c1cnn2ccn([C@@H]3O[C@H](CO)[C@@H](O)[C@H]3O)c12 | BACTEC | H37Rv | - | MIC bound | - | - | >12.5 µg/mL
Clc1ccc(Cl)c(N/N=C/c2csc3ccccc23)c1 | resazurin | H37Rv (ATCC 27294) | - | inhibition | 6.25 µg/mL | - | 96%
CN1CCC(CN2c3ccccc3Sc3ccccc32)C1 | - | K2 | - | MIC | - | - | 10 µg/mL
CCCCCCCCCCCCCCC[C@H](O)C[C@H](O)C[C@H](O)C[C@H]1CC=CC(=O)O1 | - | H37Rv | - | MIC | - | - | 23.4 µg/mL
Cc1cc(C(=O)N=Nc2c(O)[nH]c3ccccc23)n[nH]1 | resazurin | H37Rv | - | MIC50 | - | - | >50 µg/mL
Nc1nc(CCl)cs1 | BACTEC | H37Rv | - | MIC bound | - | - | >6.25 µg/mL
NNC(=O)c1ccncc1 | broth dilution | MTCC 200 | - | MIC | - | - | 20 µg/mL